Anti-infective test results gathered from many reports (values: NIAID ChemDB through PubChem).

Lines come from different laboratories, so protocols vary. MIC bound: limit read from a one-dose screen. ICn: concentration for n% inhibition. Percent inhibition refers to the dose given; in toxicity tests it is the harm to the cells. An empty or dashed field is not shown. A number after MIC or MFC names an inhibition level or a share of isolates.

structure	test	agent	strain or isolate	target	read by	read-out	tested at	value
N#Cc1ccccc1N1CCN(c2cncc(-c3ccc(Cl)cc3)n2)CC1	target	Cytomegalovirus	-	UL97 kinase	-	IC50	-	<10 µM
CC1=C(C(=S)Nc2ccc(Cl)c(C(=O)OC(C)C)c2)SCCO1	culture	Mycobacterium tuberculosis	H37Rv	-	BACTEC	MIC bound	-	>12.5 µg/mL
COc1ccc(-c2cncc(N3CCC(c4ccccc4)CC3)n2)cc1OC	target	Cytomegalovirus	-	UL97 kinase	-	inhibition	1 µM	<50%
O=C([O-])[C@H]([O-])[C@@H]([O-])C(=O)[O-].O=C([O-])[C@H]([O-])[C@@H]([O-])C(=O)[O-].[Na+].[Na+].[Na+].[Na+].[O]=[V+2].[O]=[V+2]	culture	Mycobacterium tuberculosis	H37Rv	-	BACTEC	inhibition	12.5 µg/mL	1%
CCCCCc1cc(O)c2c3c(c(=O)oc2c1)C(C)CC(C)C3	culture	Mycobacterium tuberculosis	H37Rv	-	-	MIC	-	>100 µg/mL
C=CCc1ccc(OC)c(OC)c1	culture	Candida tropicalis	2467	-	turbidity	MIC90	-	350 µg/mL
C=C(C)C(=O)O[C@H]1CC2=C[C@@H](C[C@@]3(C)O[C@H]3[C@H]3OC(=O)C(=C)[C@@H]31)OC2=O	culture	Mycobacterium tuberculosis	H37Rv	-	BACTEC	MIC bound	-	>12.8 µg/mL
Cc1ccc(-c2cncc(NCc3ccco3)n2)cc1C	target	Cytomegalovirus	-	UL97 kinase	-	inhibition	10 µM	>15%
Fc1ccc(N2CCCCC2)c(NC(=S)c2ccncc2)c1	host protein	-	-	WNK3	kinase activity	inhibition	10 µM	13%
CN(C)c1ccc(Cc2ccc(N(C)C)cc2)cc1	culture	Mycobacterium tuberculosis	H37Rv	-	-	MIC	-	50 µg/mL
Fc1ccccc1N1CCN(c2cncc(-c3ccoc3)n2)CC1	target	Cytomegalovirus	-	UL97 kinase	-	inhibition	1 µM	<50%
C=CCOC(=O)c1c(C(=O)O)cccc1[N+](=O)[O-]	culture	Mycobacterium tuberculosis	H37Rv	-	-	MIC	-	100 µg/mL
CSc1ccc(-c2cncc(N3CCN(c4ccc(F)cc4F)CC3)n2)cc1	target	Cytomegalovirus	-	UL97 kinase	-	inhibition	1 µM	<50%
CCOc1ccc(-c2ccccc2)cc1NC(=O)c1cc2ccccc2cc1O	culture	Mycobacterium tuberculosis	H37Rv	-	-	MIC	-	>100 µg/mL
OCCNCCN1CCN(CCCN2c3ccccc3Sc3ccc(C(F)(F)F)cc32)CC1	culture	Mycobacterium tuberculosis	H37Rv	-	BACTEC	inhibition	12.5 µg/mL	98%
COc1cccc(-c2cncc(N3CCN(c4ccccc4)CC3)n2)c1	target	Cytomegalovirus	-	UL97 kinase	-	IC50	-	<10 µM
COc1ccc(O)c(N=Nc2ccccc2C(=O)O)c1	culture	Mycobacterium tuberculosis	H37Rv	-	-	MIC	-	>100 µg/mL
CCN(CC)c1ccc(N=C2C=CC(=O)c3ncccc32)c(C)c1	culture	Mycobacterium tuberculosis	H37Rv	-	resazurin	MIC	-	6.25 µg/mL
CC(=O)CC(C)(C)N.O=C(O)C(=O)O	culture	Mycobacterium tuberculosis	H37Rv	-	-	MIC	-	>100 µg/mL
N#CC1(c2nc3ccccc3o2)C(=O)C(=O)N(C2C3CC4CC(C3)CC2C4)C(=O)C1=O	culture	Mycobacterium tuberculosis	H37Rv	-	resazurin	inhibition	6.25 µg/mL	99%
COC(=O)c1cc2ccccc2c(N=Nc2ccccc2C(=O)O)c1O	culture	Mycobacterium tuberculosis	H37Rv	-	-	MIC	-	>100 µg/mL
CCc1n[nH]c(=O)n1-c1ccncc1	culture	Mycobacterium tuberculosis	H37Rv	-	resazurin	MIC bound	-	>6.25 µg/mL
COC(=O)C(C)(C)O	culture	Mycobacterium tuberculosis	H37Rv	-	-	MIC	-	>100 µg/mL
CCOC(=O)C1C2OC3C(OS(=O)(=O)C31)C2Br	culture	Mycobacterium tuberculosis	H37Rv	-	BACTEC	MIC	-	≥128 µg/mL
COc1cccc(N2CCN(c3cncc(-c4csc5ccccc45)n3)CC2)c1	target	Cytomegalovirus	-	UL97 kinase	-	inhibition	1 µM	<50%
FC(F)(F)c1ccc2c(c1)N(CCCN1CCN(CCC3OCCCO3)CC1)c1ccccc1S2	culture	Mycobacterium tuberculosis	H37Rv	-	-	MIC	-	12.5 µg/mL
NC(=S)c1ccccc1	culture	Mycobacterium tuberculosis	H37Rv	-	-	MIC	-	25 µg/mL
CC(C)CC1C(=O)NCCC(NC(=O)C(N)Cc2ccc(O)cc2)C(=O)NC(Cc2ccccc2)C(=O)NC(Cc2ccccc2)NC1=O	culture	Mycobacterium tuberculosis	H37Rv	-	resazurin	inhibition	6.25 µg/mL	-10%
CC(=O)c1ccc(N2CCN(c3cncc(-c4ccc(C(C)(C)C)cc4)n3)CC2)cc1	target	Cytomegalovirus	-	UL97 kinase	-	IC50	-	<100 µM
CCCCOC(=O)CC(=O)OCCCC	culture	Mycobacterium tuberculosis	H37Rv	-	-	MIC	-	>100 µg/mL
Fc1ccccc1N1CCN(c2cncc(-c3csc4ccccc34)n2)CC1	target	Cytomegalovirus	-	UL97 kinase	-	inhibition	10 µM	>15%
CCOC(=O)CC(=O)c1sc(Nc2ccccc2)c(C(N)=O)c1N	culture	Mycobacterium tuberculosis	H37Rv	-	resazurin	inhibition	6.25 µg/mL	-9%
COc1ccc2nc3cc(Cl)ccc3c(N)c2c1	culture	Mycobacterium tuberculosis	H37Rv	-	-	MIC	-	100 µg/mL

Repeating the first 3 entries:

structure,test,agent,strain or isolate,target,read by,read-out,tested at,value
N#Cc1ccccc1N1CCN(c2cncc(-c3ccc(Cl)cc3)n2)CC1,target,Cytomegalovirus,-,UL97 kinase,-,IC50,-,<10 µM
CC1=C(C(=S)Nc2ccc(Cl)c(C(=O)OC(C)C)c2)SCCO1,culture,Mycobacterium tuberculosis,H37Rv,-,BACTEC,MIC bound,-,>12.5 µg/mL
COc1ccc(-c2cncc(N3CCC(c4ccccc4)CC3)n2)cc1OC,target,Cytomegalovirus,-,UL97 kinase,-,inhibition,1 µM,<50%